In patent US20240199725A1 (KOREA UNIVERSITY RESEARCH AND BUSINESS FOUNDATION, published 2024):
Positions count from the first letter of the chain named.

B1: VH variant JS-VH 9 (other)
VH: QVQLQESGGGVVQPGESLRLSCAASGFTFGDYAMHWVRQPPGKGLEWVSLISGDGFFTHYADSVEGRFTVSRDNSKNSLYLQMNSLRAEDTAVYYCARDSFGGHLDLWGQGTLVTVSS
B2: VH variant JS-VH 19 (other)
VH: B1 VH with G30E, A97V
B3: VH variant JS-VH 21 (other)
VH: B1 VH with G30E, F57Y

target: T1, COVID-19-RBD-GST (SARS-CoV-2 (COVID-19 virus), wild type); assay: flow cytometry, variant on spheroplasts, 50 nM COVID-19 RBD-Alexa 488 antigen
T1 construct: also called dimeric RBD fused with a GST tag; COVID-19-RBD-GST-Alexa488 probe

Does B1 bind?
Result: binds

Does B2 bind?
Result: binds

Does B3 bind?
Result: binds
